In article PMC4549179, “Mutations in the DI-DII Linker of Human Parainfluenza Virus Type 3 Fusion Protein Result in Diminished Fusion Activity” (PLoS ONE, 2015):

Biological target: Human parainfluenza virus type 3 hemagglutinin-neuraminidase (HN) protein (human parainfluenza virus type 3, cell-surface protein biotinylated with EZ-Link sulfo-NHS-SS-biotin)
Assay: cell-based or functional assay

Binder | syncytium formation in BHK-21 cells coexpressing mutant F and HN
HPIV3 fusion (F) protein S370A (natural protein, cell-surface protein biotinylated with EZ-Link sulfo-NHS-SS-biotin) not shown | < 5 % of the wt F and HN level
HPIV3 fusion (F) protein V373A (natural protein, cell-surface protein biotinylated with EZ-Link sulfo-NHS-SS-biotin) not shown | < 5 % of the wt F and HN level
